Key:
[1] = molecular target: HCMV C-A C161A (Human cytomegalovirus, UniProt P16753, A143V/A209V/C138A/C161A/C202A/C84A/C87A); format: binding
[2] = molecular target: HCMV C-A L222D (Human cytomegalovirus, UniProt P16753, A143V/A209V/C138A/C202A/C84A/C87A/L222D); format: binding

O=C(CCl)Cn1nnc(-c2ccccc2)c1COC(=O)NCc1ccccc1 [Compound 43, (1-(3-Chloro-2-oxopropyl)-4-phenyl-1H-1,2,3-triazol-5-yl)methyl benzylcarbamate]
labeling of HCMV C-A C161A [1]: no labeling occurs
rate of labeling (kobs) HCMV C-A L222D monomer [2]: 0.050 min⁻¹

Source: article PMC9133232 (Cell chemical biology, 2022)
